The subject of the assay is EEV spread (comet-shaped plaques). In kind it is cell-based, Vaccinia virus.

Consider heparin [HP], for which the comet tails result (HP 5, 25 or 100 μg/ml with mAb 2D5 (1/500)) is “reduced severely and were almost abolished at the higher HP concentrations”. The comet-shaped plaque formation result (HP alone, 5, 25 or 100 μg/ml) is “not inhibited”.
